Measured values from several laboratories, pooled; numbers as filed in NIAID ChemDB.

Common to all: growth or infection tests; organism: Mycobacterium kansasii

Lines come from different laboratories, so protocols vary.

SMILES,tested at,setting,strain or isolate,read by,endpoint,result
O=C1c2cc(Cl)ccc2OP(=O)(c2ccccc2)N1c1ccc(Cl)c(Cl)c1,-,7 d,My 235/80,-,MIC,8 µM
CC(C)=CCC/C(C)=C/CNCCNC1C2CC3CC(C2)CC1C3,100 µg/disc,-,ATCC 35775,agar diffusion,zone,55 mm
CCCCCCCCCCNC(=O)Nc1ccc(S(=O)(=O)Nc2cc(C)on2)cc1,-,21 d,235/80,broth dilution / absorbance,MIC100,125 µM
CCCN(CCC)C(=O)c1cc(C)cc(C(=O)N[C@H]([C@H](O)CNCc2cccc(I)c2)C(F)(F)c2ccccc2)c1,100 µg/disc,-,ATCC 35775,agar diffusion,zone,11 mm
O=C(Nc1ccc(Cl)cc1)c1cc(Cl)ccc1OP(=O)(c1ccccc1)c1ccccc1,-,14 d,My 235/80,-,MIC,8 µM
CC[C@@H](CO)NCCN[C@@H](CC)CO,-,-,T,broth dilution,MIC,1 µg/mL
CCNC(=O)Nc1ccc(S(=O)(=O)Nc2cc(C)on2)cc1,-,7 d,6509/96 clinical isolate,broth dilution / absorbance,MIC100,250 µM
O=C1c2cc(Br)ccc2OP(=O)(c2ccccc2)N1c1ccc(C(F)(F)F)cc1,-,21 d,My 6509/96,-,MIC,8 µM
Cc1cc(NS(=O)(=O)c2ccc(NC(=O)Nc3ccc(S(=O)(=O)Nc4cc(C)on4)cc3)cc2)no1,-,7 d,6509/96 clinical isolate,broth dilution / absorbance,MIC100,2 µM
O=C(Nc1ccccc1)c1ccccc1OP(=O)(Oc1ccccc1)c1ccccc1,-,21 d,My 6509/96,-,MIC,500 µM
CCCNC(=O)Nc1ccc(S(=O)(=O)Nc2cc(C)on2)cc1,-,14 d,235/80,broth dilution / absorbance,MIC100,1000 µM
O=C1c2cc(Cl)ccc2OP(=O)(c2ccccc2)N1c1ccc(Cl)cc1,-,21 d,My 235/80,-,MIC,16 µM
CCCCCCNC(=O)Nc1ccc(S(=O)(=O)Nc2cc(C)on2)cc1,-,21 d,235/80,broth dilution / absorbance,MIC100,500 µM
NNC(=O)c1ccncc1,-,-,104 clinical isolates,-,MIC50,2 µg/mL
CCCN(CCC)C(=O)c1cc(C)cc(C(=O)N[C@@H]([C@@H](O)CNCc2cccc(I)c2)C(F)(F)c2ccccc2)c1,100 µg/disc,-,ATCC 35775,agar diffusion,zone,0 mm

A second listing of 2 rows from above:

CCCNC(=O)Nc1ccc(S(=O)(=O)Nc2cc(C)on2)cc1 ; setting: 14 d ; strain or isolate: 235/80 ; read by: broth dilution / absorbance ; endpoint: MIC100 ; result: 1000 µM
O=C1c2cc(Cl)ccc2OP(=O)(c2ccccc2)N1c1ccc(Cl)c(Cl)c1 ; setting: 7 d ; strain or isolate: My 235/80 ; endpoint: MIC ; result: 8 µM

Zone: diameter of growth inhibition. MIC50, MIC90 and the like: level of inhibition, or share of isolates inhibited. Blank or dashed fields: not listed here.